Results of unrelated studies side by side (data: NIAID ChemDB).

Shared fields: growth or infection tests; organism: Aspergillus fumigatus; endpoint: MFC

Two numbers with a dash give a range or band. Rows are shuffled and stem from different studies. Blank or dashed fields: not listed here.

{"compound": "O=C/C=C/c1ccccc1", "strain or isolate": "MTCC 2550", "read by": "broth dilution", "value": "160 µg/mL"}
{"compound": "O=c1oc2ccccc2c(O)c1C(c1c(O)c2ccccc2oc1=O)c1c[nH]c2ccccc12", "read by": "agar diffusion / agar", "value": ">100 µg/mL"}
{"compound": "C[C@H]1[C@H](O)[C@@H](C)/C=C/C=C/C=C/C=C/C=C/C=C/C=C/[C@H](O[C@@H]2O[C@H](C)[C@@H](O)[C@H](N)[C@@H]2O)C[C@@H]2O[C@](O)(C[C@@H](O)C[C@@H](O)CC[C@H](O)[C@@H](O)C[C@@H](O)CC(=O)O[C@H]1C)C[C@H](O)[C@H]2C(=O)O", "strain or isolate": "NFI 4001", "value": "1 µg/mL"}
{"compound": "S=C=NCc1ccccc1", "read by": "broth dilution", "value": "10 µg/mL"}
{"compound": "COc1cc(Cc2cnc(N)nc2N)cc(OC)c1OC", "strain or isolate": "20 isolates", "value": ">16 µg/mL"}
{"compound": "N#CCc1ccccc1", "read by": "broth dilution", "value": "300 µg/mL"}
{"compound": "CC(C)=CCC/C(C)=C/CO", "strain or isolate": "MTCC 2550", "read by": "broth dilution", "value": "288 µg/mL"}
{"compound": "CNCCC(Oc1ccc(C(F)(F)F)cc1)c1ccccc1", "strain or isolate": "10 clinical isolates", "value": "78–1250 µg/mL"}
{"compound": "Nc1ccc(S(=O)(=O)Nc2ncccn2)cc1", "strain or isolate": "20 isolates", "value": ">400 µg/mL"}
{"compound": "COc1cccc(CSC#N)c1", "read by": "broth dilution", "value": "600 µg/mL"}
{"compound": "C=C1/C=C(\\C)[C@H](CC)OC(=O)[C@H](C)C(=O)C(O)(CO)C/C(OC)=C/[C@@H](C)C1", "strain or isolate": "IAM2034", "value": ">20 µg/mL"}
{"compound": "N=C(N)c1ccc(OCCCCCOc2ccc(C(=N)N)cc2)cc1", "strain or isolate": "20 isolates", "value": ">128 µg/mL"}
{"compound": "COc1cccc(CN=C=S)c1", "read by": "broth dilution", "value": "150 µg/mL"}
{"compound": "CCc1nc(N)nc(N)c1-c1ccc(Cl)cc1", "strain or isolate": "20 isolates", "value": ">4 µg/mL"}
{"compound": "Cc1nn(-c2ccccc2)c2c1C(c1c(O)c3ccccc3oc1=O)c1c(oc3ccccc3c1=O)O2", "read by": "agar diffusion / agar", "value": ">100 µg/mL"}

For reference, 2 entries again:

compound | strain or isolate | read by | value
Nc1ccc(S(=O)(=O)Nc2ncccn2)cc1 | 20 isolates |  | >400 µg/mL
N#CCc1ccccc1 |  | broth dilution | 300 µg/mL